## PSTVd loop 15 mutant pool in Nicotiana benthamiana

Region: loop 15 of PSTVd (intermediate strain), upper and lower strand joined, each 5' to 3', the first 7 letters being the upper strand, closing pairs included. Wild type: GGAAACCGCUACUAC. Varied positions (N): GGAAACCGNNNNNNC.

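Three N. benthamiana plants were inoculated with the whole mutant pool. Samples came from the inoculated region at 5 days, the leaf margin at 10 and upper systemic leaves at 12.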

Numbers give reads per thousand; 0 = not seen among the reads, higher = more abundant. Each value is the mean of three plants. "Pool" is the share in the plasmid pool used as inoculum, on the same scale. The inoculated region was read from the minus strand, the other sites from the plus strand. The authors trace changes outside the varied positions to PCR and sequencing errors or to mutation in the plant; presence does not show that a variant is infectious alone. For reference, wild type rose from 33.9 per thousand in the pool to 202, 200, 159 (inoculated region), 724, 746, 710 (leaf margin) and 856, 883, 880 (systemic leaves). Samples held 43,870 to 66,106 reads, so the smallest values rest on one or two reads.

GGAAACCGGUCGGCC (pool 0.304) read inoculated region 0.0669; leaf margin 0.0187; systemic leaves 0.
GGAAACCGAGCCCGC (pool 0.224) read inoculated region 0.0885; leaf margin 0.0121; systemic leaves 0.
GGAAACCGCUAUCCC (pool 0.224) read inoculated region 0.0920; leaf margin 0.00539; systemic leaves 0.
GGAAACCGCACCGGC (pool 0.192) read inoculated region 0.105; leaf margin 0.00668; systemic leaves 0.
GGAAACCGUAGACGC (pool 0.208) read inoculated region 0.0616; leaf margin 0.0316; systemic leaves 0.
GGAAACCGCACAAAC (pool 0.160) read inoculated region 0.0949; leaf margin 0.0202; systemic leaves 0.
GGAAACCGACCGUAC (pool 0.176) read inoculated region 0.260; leaf margin 0.113; systemic leaves 0.0537.
GGAAACCGUUCCAGC (pool 0.320) read inoculated region 0.0802; leaf margin 0.0187; systemic leaves 0.
GGAAACCGCUCUUCC (pool 0.224) read inoculated region 0.113; leaf margin 0.00742; systemic leaves 0.
GGAAACCGGCAUUGC (pool 0.288) read inoculated region 0.133; leaf margin 0.00539; systemic leaves 0.00537.
GGAAACCGGGGAAUC (pool 0.240) read inoculated region 0.0947; leaf margin 0.00668; systemic leaves 0.
GGAAACCGUCGUCUC (pool 0.288) read inoculated region 0.0766; leaf margin 0.0200; systemic leaves 0.
GGAAACCGGAGCUCC (pool 0.304) read inoculated region 0.0684; leaf margin 0; systemic leaves 0.
GGAAACCGGGUAAGC (pool 0.224) read inoculated region 0.0807; leaf margin 0.0148; systemic leaves 0.
GGAAACCGACCAAGC (pool 0.208) read inoculated region 0.105; leaf margin 0.0141; systemic leaves 0.
GGAAACCGGUGGAUC (pool 0.176) read inoculated region 0.106; leaf margin 0.0316; systemic leaves 0.
GGAAACCGCCUAAGC (pool 0.240) read inoculated region 0.119; leaf margin 0.0121; systemic leaves 0.
GGAAACCGAGCGACC (pool 0.176) read inoculated region 0.0913; leaf margin 0.0108; systemic leaves 0.00537.
GGAAACCGAGAUAAC (pool 0.256) read inoculated region 0.361; leaf margin 0.125; systemic leaves 0.0161.
GGAAACCGAAAAUGC (pool 0.224) read inoculated region 0.404; leaf margin 0.0993; systemic leaves 0.0211.
GGAAACCGGUAUCAC (pool 0.224) read inoculated region 0.445; leaf margin 0.151; systemic leaves 0.0515.
GGAAACCGUUCCCGC (pool 0.128) read inoculated region 0.0977; leaf margin 0.0175; systemic leaves 0.
GGAAACCGACGGGCC (pool 0.160) read inoculated region 0.204; leaf margin 0.0187; systemic leaves 0.
GGAAACCGGACACAC (pool 0.336) read inoculated region 0.0965; leaf margin 0.00668; systemic leaves 0.
GGAAACCGGAAGUCC (pool 0.256) read inoculated region 0.378; leaf margin 0.125; systemic leaves 0.0161.
GGAAACCGACGUAAC (pool 0.192) read inoculated region 0.127; leaf margin 0; systemic leaves 0.
GGAAACCGGUGACUC (pool 0.256) read inoculated region 0.0869; leaf margin 0.00539; systemic leaves 0.00537.
GGAAACCGCUUAACC (pool 0.128) read inoculated region 0.117; leaf margin 0; systemic leaves 0.
GGAAACCGCUCCCGC (pool 0.176) read inoculated region 0.0668; leaf margin 0; systemic leaves 0.00537.
GGAAACCGUUCUACC (pool 0.176) read inoculated region 0.0794; leaf margin 0; systemic leaves 0.
GGAAACCGUUAUAAC (pool 0.272) read inoculated region 0.450; leaf margin 0.115; systemic leaves 0.0509.
GGAAACCGUACACCC (pool 0.272) read inoculated region 0.0893; leaf margin 0.0141; systemic leaves 0.
GGAAACCGCGGACUC (pool 0.288) read inoculated region 0.104; leaf margin 0.00668; systemic leaves 0.
GGAAACCGAAUAUUC (pool 0.224) read inoculated region 0.154; leaf margin 0.00742; systemic leaves 0.
GGAAACCGACGACUC (pool 0.320) read inoculated region 0.0895; leaf margin 0.0121; systemic leaves 0.
GGAAACCGCAAGAGC (pool 0.192) read inoculated region 0.121; leaf margin 0.0141; systemic leaves 0.00537.
GGAAACCGCAGCCAC (pool 0.192) read inoculated region 0.0806; leaf margin 0; systemic leaves 0.
GGAAACCGACUUCUC (pool 0.160) read inoculated region 0.0830; leaf margin 0.0208; systemic leaves 0.
GGAAACCGCAACAAC (pool 0.176) read inoculated region 0.150; leaf margin 0.00668; systemic leaves 0.0104.

A selection of 5 entries from above:

GGAAACCGGCAUUGC (pool 0.288) gave inoculated region 0.133; leaf margin 0.00539; systemic leaves 0.00537.
GGAAACCGCUCUUCC (pool 0.224) gave inoculated region 0.113; leaf margin 0.00742; systemic leaves 0.
GGAAACCGGUGGAUC (pool 0.176) gave inoculated region 0.106; leaf margin 0.0316; systemic leaves 0.
GGAAACCGAGCGACC (pool 0.176) gave inoculated region 0.0913; leaf margin 0.0108; systemic leaves 0.00537.
GGAAACCGUUCCAGC (pool 0.320) gave inoculated region 0.0802; leaf margin 0.0187; systemic leaves 0.

Values reported by Wu et al. 2024 (doi:10.1371/journal.ppat.1012142).